In US20200262877A1, “ION CHANNEL-BINDING PEPTIDES AND METHODS OF USE THEREOF” (priority 2017, published 2020):

T1: hERG, Q12809
T1 chain: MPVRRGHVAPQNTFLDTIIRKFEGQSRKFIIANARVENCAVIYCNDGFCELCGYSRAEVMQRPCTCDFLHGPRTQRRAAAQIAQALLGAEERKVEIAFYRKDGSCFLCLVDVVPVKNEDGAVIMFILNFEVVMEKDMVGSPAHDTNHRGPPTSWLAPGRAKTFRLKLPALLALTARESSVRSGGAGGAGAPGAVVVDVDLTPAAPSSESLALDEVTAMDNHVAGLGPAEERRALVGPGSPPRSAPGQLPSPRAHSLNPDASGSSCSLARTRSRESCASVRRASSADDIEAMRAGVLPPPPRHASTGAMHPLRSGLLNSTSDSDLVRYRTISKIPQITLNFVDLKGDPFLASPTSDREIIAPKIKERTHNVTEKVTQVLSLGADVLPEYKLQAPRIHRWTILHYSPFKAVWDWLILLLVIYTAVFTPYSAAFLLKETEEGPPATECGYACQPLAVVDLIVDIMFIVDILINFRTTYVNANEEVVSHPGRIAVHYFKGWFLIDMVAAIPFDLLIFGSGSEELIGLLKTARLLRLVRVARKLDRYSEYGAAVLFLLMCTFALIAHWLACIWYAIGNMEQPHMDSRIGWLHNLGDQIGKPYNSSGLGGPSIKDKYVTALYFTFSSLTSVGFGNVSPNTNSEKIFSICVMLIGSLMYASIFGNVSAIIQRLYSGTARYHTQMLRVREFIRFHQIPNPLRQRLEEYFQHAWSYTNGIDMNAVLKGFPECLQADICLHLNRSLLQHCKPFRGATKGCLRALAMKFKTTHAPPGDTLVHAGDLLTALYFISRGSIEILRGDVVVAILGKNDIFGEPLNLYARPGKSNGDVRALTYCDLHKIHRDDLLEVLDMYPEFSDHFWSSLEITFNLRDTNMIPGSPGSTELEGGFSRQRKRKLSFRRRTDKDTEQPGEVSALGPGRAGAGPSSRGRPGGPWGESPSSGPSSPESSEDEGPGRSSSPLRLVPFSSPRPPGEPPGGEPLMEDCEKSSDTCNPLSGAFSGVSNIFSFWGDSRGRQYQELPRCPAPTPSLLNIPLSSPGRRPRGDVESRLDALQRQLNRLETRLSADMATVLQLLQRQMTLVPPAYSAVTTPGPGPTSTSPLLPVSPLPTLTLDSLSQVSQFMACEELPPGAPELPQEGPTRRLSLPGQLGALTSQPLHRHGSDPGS

B1: SEQ ID NO: 36 (peptide)
peptide: GSAQEPVKGPVSTKPGSCPIILIRCAMLNPPNRCLKDTDCPGIKKCCEGSCGMACFVPQ
modifications: not checked

Assays:
Test in all cases: cell-based or functional assay
Cav2.2 = molecular target: Cav2.2
TRPV1 = molecular target: TRPV1
GABA = molecular target: GABA
α4β2 nicotinic receptor = molecular target: α4β2 nicotinic receptor
hERG, Q12809 = molecular target: T1, hERG, Q12809
Kv2.1 = molecular target: Kv2.1
Kir2.1 = molecular target: Kir2.1
Kv1.1 = molecular target: Kv1.1
NR2B = molecular target: NR2B
TRPA1 = molecular target: TRPA1
α3β4 nicotinic receptor = molecular target: α3β4 nicotinic receptor
Kv1.3 = molecular target: Kv1.3
5HT3a = molecular target: 5HT3a
Kv1.2 = molecular target: Kv1.2
NR2A = molecular target: NR2A
Cav2.1 = molecular target: Cav2.1

| Binder | % activity at 0.2 µM (Cav2.2) | % activity at 20 µM (TRPV1) | % activity at 0.2 µM (GABA) | % activity at 20 µM (GABA) | % activity at 0.2 µM (α4β2 nicotinic receptor) | % activity at 20 µM (α4β2 nicotinic receptor) | % activity at 20 µM (hERG, Q12809) | % activity at 20 µM (Kir2.1) | % activity at 20 µM (Kv1.1) | % activity at 0.2 µM (NR2B) | % activity at 20 µM (NR2B) | % activity at 0.2 µM (TRPA1) | % activity at 20 µM (TRPA1) | % activity at 20 µM (α3β4 nicotinic receptor) | % activity at 0.2 µM (Kv1.3) | % activity at 20 µM (Kv1.3) | % activity at 0.2 µM (Kv1.2) | % activity at 20 µM (Kv1.2) | % activity at 0.2 µM (NR2A) | % activity at 0.2 µM (Cav2.1) | other results |
| --- | --- | --- | --- | --- | --- | --- | --- | --- | --- | --- | --- | --- | --- | --- | --- | --- | --- | --- | --- | --- | --- |
| GSNCAGYMRECKEKLCCSGYVCSSRWKWCVLPAPWRR (modifications not checked) [SEQ ID NO: 18] | 132% | 61% | 113% | 106% | 109% | 92% | 62% | 93% | 78% | 107% | 78% | 130% | 89% | 89% | 87% | 7% | 67% | 30% | 98% | 97% | % activity at 20 µM (Cav2.2): 124%; % activity at 0.2 µM (TRPV1): 93%; % activity at 0.2 µM (hERG, Q12809): 98%; % activity at 0.2 µM (Kv2.1): 93%; % activity at 20 µM (Kv2.1): 65%; % activity at 0.2 µM (Kir2.1): 104%; % activity at 0.2 µM (Kv1.1): 98%; % activity at 0.2 µM (α3β4 nicotinic receptor): 110%; % activity at 0.2 µM (5HT3a): 95%; % activity at 20 µM (5HT3a): 79%; % activity at 20 µM (NR2A): 79%; % activity at 20 µM (Cav2.1): 98% |
| GSQFTDVKCTGSKQCWPVCKQMFGKPNGKCMNGKCRCYS (modifications not checked) [SEQ ID NO: 19] | – | 90% | 93% | – | – | 93% | – | 93% | 44% | 117% | 130% | 126% | 109% | – | 4% | -1% | 41% | 37% | 90% | 106% | % activity at 0.2 µM (Kv1.1): 100%; % activity at 20 µM (5HT3a): 69%; % activity at 20 µM (Cav2.1): 109% |
| GSQIDTNVKCSGSSKCVKICIDRYNTRGAKCINGRCTCYP (modifications not checked) [SEQ ID NO: 20] | 110% | – | – | – | 113% | – | 87% | – | – | – | – | – | – | – | – | 7% | – | 74% | – | 100% | % activity at 0.2 µM (Kir2.1): 89% |
| GSAEIIRCSGTRECYAPCQKLTGCLNAKCMNKACKCYGCV (modifications not checked) [SEQ ID NO: 21] | – | – | – | – | – | 85% | 72% | – | – | 113% | – | 119% | – | – | 65% | 5% | 52% | 36% | – | – | – |
| GSCIGEGVPCDENDPRCCFGLVCLKPTLHGIWYKSYYCYKK (modifications not checked) [SEQ ID NO: 23] | 110% | – | – | – | – | 79% | – | – | – | – | – | 126% | – | – | – | – | – | – | – | – | % activity at 0.2 µM (TRPV1): 117%; % activity at 20 µM (5HT3a): 101% |
| GSACQFWSCNSSCISRGYRQGYCWGIQYKYCQCQ (modifications not checked) [SEQ ID NO: 27] | – | – | – | – | 90% | – | – | – | – | – | – | – | – | – | – | 100% | – | – | – | – | % activity at 0.2 µM (hERG, Q12809): 90% |
| GSQVSTNKKCSNTSQCYKTCEKVVGVAAGKCMNGKCICYP (modifications not checked) [SEQ ID NO: 30] | 96% | 84% | 102% | 114% | 89% | 92% | – | 93% | 102% | 92% | 88% | 118% | 111% | – | 89% | 71% | 110% | 92% | 111% | 111% | % activity at 0.2 µM (TRPV1): 107%; % activity at 0.2 µM (Kv2.1): 107%; % activity at 0.2 µM (Kir2.1): 102%; % activity at 0.2 µM (5HT3a): 71% |
| GSGVPINVRCRGSRDCLDPCRRAGMRFGRCINSRCHCTP (modifications not checked) [SEQ ID NO: 33] | – | – | – | – | – | – | – | – | – | – | 70% | – | – | 90% | – | – | – | – | – | – | – |
| GGYSRCQLQGFNCVVRSYGLPTIPCCRGLTCRSYFPGSTYGRCQRY (modifications not checked) [SEQ ID NO: 34] | 130% | 71% | – | 117% | – | 51% | 66% | 50% | – | – | 66% | – | – | – | – | – | – | 51% | – | – | % activity at 0.2 µM (5HT3a): 114% |
| GSGCFGYKCDYYKGCCSGYVCSPTWKWCVRPGPGR (modifications not checked) [SEQ ID NO: 9] | – | – | – | – | – | – | – | – | – | – | – | 131% | – | – | – | – | 120% | – | – | – | – |
| B1 | 114% | 69% | 118% | – | 62% | 57% | – | – | – | – | – | – | – | 87% | – | – | – | 87% | 115% | – | % activity at 20 µM (Cav2.2): 87% |
| GSSEKDCIKHLQRCRENKDCCSKKCSRRGTNPEKRCR (modifications not checked) [SEQ ID NO: 3] | – | 95% | – | – | – | – | – | – | 73% | – | 74% | – | – | 92% | 92% | 87% | – | 45% | – | – | % activity at 0.2 µM (hERG, Q12809): 121%; % activity at 0.2 µM (Kv2.1): 80%; % activity at 20 µM (NR2A): 100% |
| GSSCAKPRENCNRMNILCCRGECVCPTFGDCFCYGD (modifications not checked) [SEQ ID NO: 4] | – | – | – | – | – | – | 80% | 90% | – | – | – | 135% | – | – | – | – | 90% | 45% | – | – | % activity at 20 µM (NR2A): 90% |
| GSQKILSNRCNNSSECIPHCIRIFGTRAAKCINRKCYCYP (modifications not checked) [SEQ ID NO: 13] | 121% | 88% | 107% | 93% | – | 80% | 67% | 98% | 79% | 122% | 117% | 129% | – | 83% | 68% | 64% | 88% | 40% | 94% | 109% | % activity at 20 µM (Cav2.2): 100%; % activity at 0.2 µM (hERG, Q12809): 89%; % activity at 0.2 µM (Kv2.1): 104%; % activity at 20 µM (Kv2.1): 116%; % activity at 0.2 µM (Kv1.1): 107%; % activity at 20 µM (NR2A): 108%; % activity at 20 µM (Cav2.1): 100% |
| GSDRDSCIDKSRCSKYGYYQECQDCCKKAGHNGGTCMFFKCKCA (modifications not checked) [SEQ ID NO: 14] | 129% | – | – | 120% | – | – | 1% | – | – | 123% | – | – | 66% | – | – | – | – | 34% | – | – | % activity at 0.2 µM (TRPV1): 133% |
| GSACLAEYQKCEGSTVPCCPGLSCSAGRFRKTKLCTK (modifications not checked) [SEQ ID NO: 25] | – | – | – | – | – | – | – | – | – | – | – | 124% | 129% | – | – | – | – | – | – | – | – |
